From publication PMC6835510, “Magnificamide, a β-Defensin-Like Peptide from the Mucus of the Sea Anemone Heteractis magnifica, Is a Strong Inhibitor of Mammalian α-Amylases” (Marine Drugs, 2019)
Bridge positions count the residues as written; N and C are the ends. Ends that are not written are not given here.

Test: Circular dichroism spectroscopy, secondary structure
Format: physicochemical
Settings: CD, 50 µg/mL, 0.01 M sodium phosphate buffer pH 7.0, 25 °C; for α-Helix III / β-Structure III: III appears to be the total of I and II; for Unordered Structure / α-Helix I / α-Helix II / β-Structure I / β-Structure II / β-Turn: Provencher–Glöckner method

SEGTSCYIYHGVYGICKAKCAEDMKAMAGMGVCEGDLCCYKTPW (disulfide 6-38, 16-33, 20-39) [Magnificamide]
α-Helix III: 1.7 percentages | β-Structure III: 35.1 percentages | Unordered Structure: 38.9 percentages | α-Helix I: 0.0 percentages | α-Helix II: 1.7 percentages | β-Structure I: 21.4 percentages | β-Structure II: 13.7 percentages | β-Turn: 24.3 percentages

SEGTSCYIYHGVYGICKAKCAEDMKAMAGMGVCEGDLCCYKTPW (disulfide 6-38, 16-33, 20-39) [r-magnificamide]
α-Helix III (listed as r-Magnificamide): 1.2 percentages | β-Structure III (listed as r-Magnificamide): 32.9 percentages | Unordered Structure (listed as r-Magnificamide): 43.7 percentages | α-Helix I (listed as r-Magnificamide): 0.1 percentages | α-Helix II (listed as r-Magnificamide): 1.1 percentages | β-Structure I (listed as r-Magnificamide): 18.2 percentages | β-Structure II (listed as r-Magnificamide): 14.7 percentages | β-Turn (listed as r-Magnificamide): 22.2 percentages
